Pooled drug test results. Numbers come from NIAID ChemDB, via PubChem.

Shared fields: target-level tests; species: HIV; target: Protease; measure: IC50

ICn is the concentration giving n% inhibition.

compound	changes	method	value
COc1ccc(S(=O)(=O)N(CC(C)C)C[C@@H](O)COc2ccc3[nH]ccc3c2)cc1OC	-	-	1.04 µM
CC(C)(C)NC(=O)[C@@H]1CCCN1C(=O)[C@@H](O)[C@H](Cc1ccccc1)NC(=O)[C@H](CC(N)=O)NC(=O)COc1ccccc1[N+](=O)[O-]	-	HPLC	0.018 µg/mL
COc1ccc(S(=O)(=O)N(CCc2cccc(N)c2)C[C@H](O)CN2C[C@H]3CCCC[C@H]3C[C@H]2C(=O)NC(C)(C)C)cc1	-	-	>200 µM
CC(C)(C)OC(=O)C[C@@H](CC1CCCCC1)[C@@H](O)C[C@@H](Cc1ccc(O)cc1)C(=O)N[C@H]1c2ccccc2C[C@H]1O	-	HPLC	0.001–0.1 µM
CCCN(C[C@H](O)CN1C[C@H]2CCCC[C@H]2C[C@H]1C(=O)NC(C)(C)C)S(=O)(=O)c1ccc(N)cc1	-	-	0.47 µM
O=C(C[C@@H](CC1CCCCC1)[C@@H](O)C[C@@H](Cc1ccc(O)cc1)C(=O)N[C@H]1c2ccccc2C[C@H]1O)NC1CCCC1	-	HPLC	0.001–0.1 µM
CC(C)(C)NC(=O)c1ccccc1C[C@@H](O)[C@@H](Cc1ccccc1)NC(=O)c1cccc2c1CCNC2	-	fluorescence	0.113 µg/mL
COc1ccc(S(=O)(=O)N(CCc2cccc([N+](=O)[O-])c2)C[C@H](O)CN2C[C@H]3CCCC[C@H]3C[C@H]2C(=O)NC(C)(C)C)cc1	-	-	19.73 µM
CC(C)(C)NC(=O)[C@@H]1CCCN1C(=O)[C@@H](O)[C@H](Cc1ccccc1)NC(=O)[C@H](CC(N)=O)NC(=O)COc1ccccc1	-	HPLC	0.022 µg/mL
C=CC(C)(C)c1[nH]c2ccccc2c1C1=C(O)C(=O)C(c2c(C(C)(C)C=C)[nH]c3ccccc23)=C(O)C1=O	PR-V82T	-	1.8 µM
O=C(O)c1cc(NS(=O)(=O)c2cccc3c(S(=O)(=O)Nc4cc(C(=O)O)c(O)c(S(=O)(=O)O)c4)cccc23)cc(S(=O)(=O)O)c1O	-	fluorescence	80 µM
CC(C)(C)NC(=O)[C@@H]1C[C@@H]2CCCC[C@@H]2CN1C[C@@H](O)CN(CCc1ccc2c(c1)OCO2)S(=O)(=O)c1ccc([N+](=O)[O-])cc1	-	-	37.1 µM
CC[C@H](C)[C@H](NC(=O)[C@@H]1CCCN1C(=O)[C@H](Cc1ccc(O)cc1)NC(=O)[C@@H](NC(=O)[C@H](CCC(N)=O)NC(=O)[C@@H](N)CO)C1CCCO1)C(=O)N[C@H](C(=O)O)C(C)C	-	-	<0.05 µM
CC(C)(C)NC(=O)[C@@H]1C[C@@H]2CCCC[C@@H]2CN1C[C@@H](O)CN(CCc1cccc([N+](=O)[O-])c1)S(=O)(=O)c1ccc([N+](=O)[O-])cc1	-	-	33.16 µM
COC(=O)C(=O)N1CCC[C@H]1C(=O)N[C@@H](Cc1ccccc1)C(=O)Nc1cccc(OCC(=O)N[C@@H](CC(N)=O)C(=O)N[C@@H](Cc2ccccc2)[C@H](O)C(=O)N2CCC[C@H]2C(=O)NC(C)(C)C)c1	-	HPLC	0.027 µg/mL
CCCCCCCCCCCCCCCC(=O)Nc1ccc(S(=O)(=O)O)c2cccc(S(=O)(=O)O)c12	-	fluorescence	4 µM
CC(C)(C)NC(=O)[C@@H]1C[C@@H]2CCCC[C@@H]2CN1C[C@@H](O)CN(CCCc1ccccc1)S(=O)(=O)c1ccc(N)cc1	-	-	0.05 µM
CC(C)(C)CC(=O)C[C@@H](CC1CCCCC1)[C@@H](O)C[C@@H](Cc1ccccc1)C(=O)N[C@H]1c2ccccc2C[C@H]1O	-	HPLC	0.0115–0.058 µM
CC(C)(C)NC(=O)[C@@H]1CCCN1C(=O)[C@@H](O)[C@H](Cc1ccccc1)NC(=O)[C@H](CC(N)=O)NC(=O)COc1ccc([N+](=O)[O-])cc1	-	HPLC	0.028 µg/mL
CCCC[C@H](NC(=O)[C@H](C)NC(=O)[C@H](CCC(=O)O)NC[C@H](Cc1ccccc1)NC(=O)[C@H](CC(C)C)NC(=O)[C@@H](NC(=O)[C@@H](N)CCCN=C(N)N)C(C)C)C(N)=O	PR-R8Q	HPLC	<0.075 µM
Cc1cc(C)c(S(=O)(=O)Oc2ccc3cccc(S(=O)(=O)O)c3c2)c(C)c1S(=O)(=O)Oc1ccc2cccc(S(=O)(=O)O)c2c1	-	fluorescence	45 µM
CC(C)CN(C[C@H](O)CN1C[C@H]2CCCC[C@H]2C[C@H]1C(=O)NC(C)(C)C)S(=O)(=O)c1cccc([N+](=O)[O-])c1	-	-	>200 µM

For reference, 2 entries again:

compound,changes,method,value
COC(=O)C(=O)N1CCC[C@H]1C(=O)N[C@@H](Cc1ccccc1)C(=O)Nc1cccc(OCC(=O)N[C@@H](CC(N)=O)C(=O)N[C@@H](Cc2ccccc2)[C@H](O)C(=O)N2CCC[C@H]2C(=O)NC(C)(C)C)c1,-,HPLC,0.027 µg/mL
COc1ccc(S(=O)(=O)N(CCc2cccc(N)c2)C[C@H](O)CN2C[C@H]3CCCC[C@H]3C[C@H]2C(=O)NC(C)(C)C)cc1,-,-,>200 µM

a–b is a range or a potency band. Neighbouring rows are from separate reports. An empty or dashed field is not shown.